Patent US10543221B2, “Beta-lactamase inhibitors, formulations, and uses thereof” (priority 2016, dated 2020)

Tested on: K. pneumoniae strain expressing KPC-2
Conditions: single agent; K. pneumoniae ATCC 4683, phenotype KPC-2

`Cc1cc(C)c2c(CP(=O)(O)O)cc(=O)oc2c1` gave an MIC of over 32 µg/mL.
